PubChem BioAssay AID504761 – Drosophila RNAi Screening Center, 2011

Test: 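Insect host genes that dengue virus relies on to spread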 (primary screen)
Cell system: D.Mel-2 cells from Drosophila
Reagent: long dsRNA against Drosophila genes
Conditions: infection with dengue virus type 2; dose and infection time not stated
Measured: 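Cells stained for dengue envelope protein and imaged; percent of infected cells per well on duplicate plates, ranked by infection, with stained nuclei counted for cell number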
Scale: infection score: higher = more virus-infected cells; cell count: higher = more cells in the well
Hit rule: 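Very low infection ranking in both replicate wells (chance probability at most 0.065), then a retest showing infection dropped 1.5-fold or more at p below 0.05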
Meaning of the calls: active = confirmed: knock-down lowers infection; inactive = not picked or not confirmed
In all, the deposit lists about 22,000 reagents; shown is a random part of those with a known target gene and a result. Over the whole deposit, 116 (0.52%) got an active call. 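Calls depend on retest data that are not deposited; infection was ranked per plate without normalising between plates; the unit of the infection score is not given.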 Raw values are not corrected between plates. Reagent sequences are not shown. Not given: the amount of reagent, the time to read-out.

Target gene	amplicon	infection score, replicate 1	infection score, replicate 2	cell count, replicate 1	cell count, replicate 2	Call
CG32447 (GeneID 40412)	DRSC11732	2.72	27.5	7020	6100	inactive
CG32447 (GeneID 40412)	DRSC11805	7.28	7.45	6568	6466	inactive
CG7970 (GeneID 38205)	DRSC08605	22.9	26.8	5372	5706	inactive
CG7970 (GeneID 38205)	DRSC26090	11.3	2.86	5813	6746	inactive
Or85d (GeneID 41011)	DRSC16767	23.6	31.6	4917	4706	inactive
Or85d (GeneID 41011)	DRSC26656	6.25	0.74	5568	5242	inactive
CG8004 (GeneID 40178)	DRSC10947	3.15	2.87	6062	6644	inactive
CG8004 (GeneID 40178)	DRSC26615	9.6	0.75	5769	5984	inactive
CG10646 (GeneID 39426)	DRSC09764	2.23	0.8	6362	6648	inactive
tap (GeneID 39935)	DRSC11402	5.02	4.4	6420	6364	inactive
jhamt (GeneID 34977)	DRSC01985	16.4	12.4	1546	6580	inactive
CG32606 (retired record) (GeneID 318111)	DRSC19001	0.37	0.03	6147	6554	inactive
CG32606 (retired record) (GeneID 318111)	DRSC19371	7.06	0.32	6004	6556	inactive
CG32606 (retired record) (GeneID 318111)	DRSC19372	10.3	12.2	4692	5129	inactive
CG32606 (retired record) (GeneID 318111)	DRSC23035	3.68	9.41	6251	6534	inactive
CG32606 (retired record) (GeneID 318111)	DRSC25810	2.29	8.66	6518	6261	inactive
CG32606 (retired record) (GeneID 318111)	DRSC26998	11.6	1.97	6569	6746	inactive
ND-13B (GeneID 39214)	DRSC10643	3.39	5.66	5391	5905	inactive
ND-13B (GeneID 39214)	DRSC29920	14.6	4.04	6245	6416	inactive
B52 (GeneID 41670)	DRSC14121	3.49	1.21	6330	6844	inactive
B52 (GeneID 41670)	DRSC25482	3.41	6.08	5508	5378	inactive
CG18870 (GeneID 59218)	DRSC04313	4.82	5.67	6737	6795	inactive
spoon (GeneID 31459)	DRSC18299	1.24	4.48	6445	6467	inactive
spoon (GeneID 31459)	DRSC24520	1.27	9.65	6374	6634	inactive
ZnT49B (GeneID 36393)	DRSC07225	12.5	7.91	6632	6876	inactive
Idh3b (GeneID 42586)	DRSC16040	1.13	3.9	6614	5996	inactive
Idh3b (GeneID 42586)	DRSC28483	6.41	1.21	3776	1078	inactive
rst (GeneID 31290)	DRSC17243	2.78	2.38	6863	7009	inactive
rst (GeneID 31290)	DRSC18828	4.43	1.23	6115	6177	inactive
rst (GeneID 31290)	DRSC25716	1.66	0.98	5960	5931	inactive
Idgf4 (GeneID 31926)	DRSC18675	3.39	3.3	6410	6611	inactive
Idgf4 (GeneID 31926)	DRSC24939	1.39	3.53	3461	6431	inactive
Galt (GeneID 33935)	DRSC03161	5.23	3.39	6059	5780	inactive
CngA (GeneID 36806)	DRSC06580	8.48	19.5	1933	4269	inactive
CngA (GeneID 36806)	DRSC07362		8.19	485	2260	inactive
CngA (GeneID 36806)	DRSC23533	17.8	15.6	6623	4941	inactive
CG5819 (GeneID 37547)	DRSC04520	25.4	23.9	6031	3556	inactive
CG5819 (GeneID 37547)	DRSC28265	22.9	8.95	5506	4727	inactive
CG30344 (GeneID 246552)	DRSC22510	2.99	8.06	6061	6230	inactive
CG30344 (GeneID 246552)	DRSC26387	1.98	0.88	5913	6399	inactive
